{"source": "paper doi:10.1101/465575", "about": "(bioRxiv, 2018)", "key": {"[1]": {"target": "T1, Rv0081 (Mycobacterium tuberculosis) (UniProt P9WMI7)", "T1 sequence (looked up, limits assumed)": "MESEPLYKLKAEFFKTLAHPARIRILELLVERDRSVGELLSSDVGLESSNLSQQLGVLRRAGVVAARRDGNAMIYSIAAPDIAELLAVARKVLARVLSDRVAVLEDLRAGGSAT", "experiment": "competition with a labelled probe", "conditions": "50x unlabelled vs ds-Wt-Biot"}, "[2]": {"target": "T1, Rv0081 (Mycobacterium tuberculosis)", "experiment": "EMSA", "conditions": "6 mM Mg2+, poly-dIdC"}}, "note": "Construct, isoform or probe ends are uncertain for at least one entry. Protein sequences can lack the tags named with them.", "data": [{"sequence": "ATCCGCACTATCTGATAAATTCTTCAACTCGTC (double strand) [ds-Wt unlabelled competitor]", "values": [{"measurement": "binding result", "setting": "[1]", "value": "binds"}]}, {"sequence": "ATCCGCACTATCTGATAAATTCTTCAACTCGTC (double strand) [ds-Wt]", "values": [{"measurement": "binding result", "setting": "[2]", "value": "binds"}]}]}
